Measured values from several laboratories, pooled; numbers as filed in NIAID ChemDB.

Shared fields: growth or infection tests; species: HIV-1

Blank or dashed fields: not listed here.

structure,mutations,cells,method,measure,strain or isolate,result
C[C@@H]1CC[C@H]2[C@@H](C)CCO[C@@H]3OC4(C)CC[C@@H]1C32OO4,-,PBMC,RT activity,EC50,LAV,50.2 µM
CCNC(=O)[C@@H](NC(=O)Cc1ccccc1)[C@@H]1N[C@@H](C(=O)NCCNC(=O)[C@@H]2N[C@@H]([C@H](NC(=O)Cc3ccccc3)C(=O)NCC)SC2(C)C)C(C)(C)S1,-,MT-4,cytopathic effect,EC50,RF,5.4 µM
COc1ccccc1/C=N/NC(=O)c1csc(N2N=C(c3ccccc3)CC2c2ccc(Cl)cc2)n1,-,MT-4,MTT / absorbance,EC50,IIIB,>10.32 µM
Nc1nc(=O)n([C@H]2C[C@H](O)[C@@H](CO)O2)cc1-c1ccncc1,-,H9,RT activity,EC50,IIIB,>10 µg/mL
COc1cc(/C=C/C(=O)/C=C/c2ccc(O)c(OC)c2)ccc1O,-,MT-4,cytopathic effect / MTT,EC50,-,>1.4 µM
Cc1cn([C@H]2C[C@H](N=[N+]=[N-])[C@@H](CO)O2)c(=O)[nH]c1=O,-,CEM + CEM-SS,cytopathic effect / XTT,EC50,IIIB,0.0061 µM
O=C(N/N=C/c1ccc([N+](=O)[O-])cc1)c1csc(N2N=C(c3ccccc3)CC2c2ccc(Cl)cc2)n1,-,MT-4,MTT / absorbance,EC50,IIIB,>105.9 µM
O=C1CCCN1CCCN1CC(=O)N2CC(N(CCOc3ccccc3)S(=O)(=O)c3cccc(F)c3)C[C@H]2C1=O,-,TZM-bl,luciferase,EC50,PLAI-JRFL PID2-6,>30 µM
CCCCCCCCCCc1ccc2c(c1)N(C)[C@@H](C(C)C)C(=O)N[C@@H](CO)C2,-,MT-4,cytopathic effect / MTT,EC50,IIIB,0.63 µg/mL
c1cc(CN2CCNCCNCCNCC2)cc(CN2CCNCCNCCNCC2)c1,-,MT-4,syncytia,EC50,IIIB,0.85 µM
COC(=O)NCCCC(C)(C)CN(C[C@@H](O)[C@H](Cc1ccccc1)NC(=O)O[C@H]1CO[C@H]2OCC[C@H]21)S(=O)(=O)c1ccc2c(c1)OCO2,PR-M46I L63P A71V V82F/L I84V,MT-4,cytopathic effect / propidium iodide,EC50,Multi-PI-resistant EP13,0.038 µM
Cc1cn([C@H]2C[C@H](N=[N+]=[N-])[C@@H](COP(=O)(Oc3ccc(C(F)(F)F)cc3)Oc3ccc(C(F)(F)F)cc3)O2)c(=O)[nH]c1=O,-,JM,ELISA,EC50,GB8)/1(IIIB,45 µM
Cc1ccc(C(=O)OC[C@H]2O[C@@H](n3cc(-c4ccncc4)c(N)nc3=O)C[C@@H]2OC(=O)c2ccc(C)cc2)cc1,-,H9,RT activity,EC50,IIIB,<10 µg/mL
Nc1ccn([C@H]2CC[C@@H](CO)O2)c(=O)n1,-,CEM + CEM-SS,cytopathic effect / XTT,EC50,IIIB,0.042 µM
Cc1ccsc1-c1cn([C@H]2C[C@H](O)[C@@H](CO)O2)c(=O)[nH]c1=O,-,H9,RT activity,EC50,IIIB,>10 µg/mL
Cc1cn([C@H]2C[C@H](N=[N+]=[N-])[C@@H](COP(=O)(Oc3ccc([N+](=O)[O-])cc3)Oc3ccc([N+](=O)[O-])cc3)O2)c(=O)[nH]c1=O,-,C8166,ELISA,EC50,IIIB,0.0032 µM
O=C(/C=C/c1ccc(O)cc1)c1ccc(O)cc1O,-,MT-4,cytopathic effect / MTT,EC50,-,>7.4 µM
Cc1nc2ccccc2n1C1C[C@H]2CC[C@@H](C1)N2CC[C@H](NC(=O)C1CCOCC1)c1ccccc1,-,HeLaP4,β-galactosidase,EC50,NL4-3,>1 µM
CCCCCCCCCCc1ccc2c(c1)N(C)[C@H](C(C)C)C(=O)N[C@@H](CO)C2,-,MT-4,cytopathic effect / MTT,EC50,IIIB,0.1 µg/mL
CC(=O)CC(c1ccccc1)c1c(O)c2ccccc2oc1=O,-,ACH-2/HIV-1 + ACH2,p24 / ELISA,EC50,-,10 µM
Cc1ccc(/C=N/NC(=O)c2csc(N3N=C(c4ccccc4)CC3c3ccc(Cl)cc3)n2)cc1,-,MT-4,MTT / absorbance,EC50,IIIB,>125 µM
COc1ccc2c(c1)N(C(=O)OC(C)C)[C@@H](CSC)C(=S)N2,RT-P225H,MT-4,cytopathic effect,EC50,Recombinant,0.004 µM
CCCCCCCCCCc1ccc2c(c1)N(C)[C@@H](C(C)C)C(=O)NC(CO)C2,-,MT-4,cytopathic effect / MTT,EC50,IIIB,0.0125 µg/mL
O=C1/C(=C/c2ccc(O)c(O)c2)CCC/C1=C\c1ccc(O)c(O)c1,-,MT-4,cytopathic effect / MTT,EC50,-,>7.4 µM
O=C(N/N=C/c1ccccc1O)c1csc(N2N=C(c3ccccc3)CC2c2ccc(Cl)cc2)n1,-,MT-4,MTT / absorbance,EC50,IIIB,>7.33 µM
CCCCCCCCCCc1ccc2c(c1)N(C)[C@@H](C(C)C)C(=O)N[C@H](CO)CC2,-,MT-4,cytopathic effect / MTT,EC50,IIIB,2.5–5 µg/mL
CC1(C)S[C@@H]2[C@H](NC(=O)Cc3ccccc3)C(=O)N2[C@H]1C(=O)NCCNC(=O)[C@@H]1N2C(=O)[C@@H](NC(=O)Cc3ccccc3)[C@H]2SC1(C)C,-,MT-4,p24,EC50,RF,>100 µM
COC(=O)c1ccc([C@H]2OOC3(CCC[C@@H](C)C3)[C@@H](OC)O2)cc1,-,PBMC,RT activity,EC50,LAV,>100 µM
CSc1ccc(OP(=O)(OC[C@H]2O[C@@H](n3cc(C)c(=O)[nH]c3=O)C[C@@H]2N=[N+]=[N-])Oc2ccc(SC)cc2)cc1,-,C8166,ELISA,EC50,IIIB,0.4 µM
O=C(/C=C/c1ccc(O)c(O)c1)c1cccc(C(=O)/C=C/c2ccc(O)c(O)c2)c1,-,MT-4,cytopathic effect / MTT,EC50,-,>5 µM
COC(=O)NCCCCC(C)(C)CN(C[C@@H](O)[C@H](Cc1ccccc1)NC(=O)O[C@H]1CO[C@H]2OCC[C@H]21)S(=O)(=O)c1ccc2c(c1)OCO2,PR-M46I L63P A71V V82F/L I84V,MT-4,cytopathic effect / propidium iodide,EC50,Multi-PI-resistant EP13,0.015 µM
Nc1nc(=O)n([C@@H]2C[C@H](O)[C@@H](CO)O2)cc1-c1ccoc1,-,H9,RT activity,EC50,IIIB,>10 µg/mL
CC(C)Oc1ccc(OC(C)C)c2c3nc4nc(nc5[nH]c(nc6nc(nc([nH]3)c12)C(SCCCC(=O)O)=C6SCCCC(=O)O)c1c(OC(C)C)ccc(OC(C)C)c51)C(SCCCC(=O)O)=C4SCCCC(=O)O,-,MAGI,β-galactosidase,EC50,IIIB,<5 µg/mL
Cc1cn([C@H]2C[C@H](N=[N+]=[N-])[C@@H](COP(=O)(Oc3ccccc3)Oc3ccccc3)O2)c(=O)[nH]c1=O,-,C8166,ELISA,EC50,IIIB,0.32 µM
CC(C)=CCN1Cc2cc(Cl)cc3[nH]c(=O)n(c23)C[C@@H]1C,RT-P225H,MT-4,cytopathic effect,EC50,Recombinant,0.165 µM
O=C(N/N=C/c1cccc(O)c1)c1csc(N2N=C(c3ccccc3)CC2c2ccc(Cl)cc2)n1,-,MT-4,MTT / absorbance,EC50,IIIB,>66.85 µM
Nc1nc(=O)n([C@H]2C[C@H](O)[C@@H](CO)O2)cc1-c1ccccn1,-,H9,RT activity,EC50,IIIB,>10 µg/mL
CC(C)=CCN1c2cc(Cl)cc3[nH]c(=S)n(c23)C[C@@H]1C,RT-K70R,MT-4,-,EC95,-,0.1 µM
Nc1nc(=O)n([C@@H]2C[C@H](O)[C@@H](CO)O2)cc1-c1ccsc1,-,H9,RT activity,EC50,IIIB,>10 µg/mL
O=C(N/N=C/c1ccc(Cl)cc1)c1csc(N2N=C(c3ccccc3)CC2c2ccc(Cl)cc2)n1,-,MT-4,MTT / absorbance,EC50,IIIB,>125 µM
O=C(/C=C(O)/C=C/c1ccccc1)/C=C/c1ccccc1,-,MT-4,cytopathic effect / MTT,EC50,-,>41 µM
COc1ccccc1CN[C@H]1C2CCN(CC2)[C@H]1C(c1ccccc1)c1ccccc1,-,Macrophage + Monocytes/macrophages,RT activity,EC50,ADA R5 isolate,<0.1 µM
Nc1nc(=O)n([C@@H]2C[C@H](O)[C@@H](CO)O2)cc1C1CC1,-,H9,RT activity,EC50,IIIB,>10 µg/mL
CC(C)=CCOc1cc(NC(=S)c2ccoc2C)ccc1Cl,RT-P225H,MT-4,cytopathic effect,EC50,Recombinant,0.015 µM
CC(C)(O)c1cccc(CN2C(=O)N(Cc3cccc(C(C)(C)O)c3)[C@H](Cc3ccccc3)[C@H](O)[C@@H](O)[C@H]2Cc2ccccc2)c1,-,MT-2/MT-4 + MT-2,p24,EC50,HXB2,<0.0222 µM
O=C(N/N=C/c1ccccc1)c1csc(N2N=C(c3ccccc3)CC2c2ccc(Cl)cc2)n1,-,MT-4,MTT / absorbance,EC50,IIIB,>0.45 µM
CCCCCCCCCCc1ccc2c(c1)N(C)[C@H](C(C)C)C(=O)N[C@H](CO)C2,-,MT-4,cytopathic effect / MTT,EC50,IIIB,0.1 µg/mL
O=C1/C(=C/c2ccc(O)c(O)c2)COC/C1=C\c1ccc(O)c(O)c1,-,MT-4,cytopathic effect / MTT,EC50,-,>10 µM
C=C(C)OC(=O)N1c2cc(Cl)ccc2NC(=S)C1(C)C,-,MT-4,cytopathic effect,EC50,-,0.002 µM
CC(C)[C@H]1C(=O)N[C@H](CO)Cc2ccccc2N1C,-,MT-4,cytopathic effect / MTT,EC50,IIIB,0.3 µg/mL
O=C(N/N=C/c1cc([N+](=O)[O-])ccc1Cl)c1csc(N2N=C(c3ccccc3)CC2c2ccc(Cl)cc2)n1,-,MT-4,MTT / absorbance,EC50,IIIB,>125 µM
CC(C)COC(=O)N1CC(=O)Nc2ccccc21,-,-,ELISA,EC50,IIIB,>100 µM
COC(=O)NCCCCCC(C)(C)CN(C[C@@H](O)[C@H](Cc1ccccc1)NC(=O)O[C@H]1CO[C@H]2OCC[C@H]21)S(=O)(=O)c1ccc2c(c1)OCO2,PR-M46I L63P A71V V82F/L I84V,MT-4,cytopathic effect / propidium iodide,EC50,Multi-PI-resistant EP13,0.046 µM
Nc1nc(=O)n([C@@H]2C=C[C@H](CO)O2)cc1F,-,MT-2,cytopathic effect / MTT,EC50,IIIB,0.5 µM

Again, the opening 8 rows:

structure | mutations | cells | method | measure | strain or isolate | result
C[C@@H]1CC[C@H]2[C@@H](C)CCO[C@@H]3OC4(C)CC[C@@H]1C32OO4 | - | PBMC | RT activity | EC50 | LAV | 50.2 µM
CCNC(=O)[C@@H](NC(=O)Cc1ccccc1)[C@@H]1N[C@@H](C(=O)NCCNC(=O)[C@@H]2N[C@@H]([C@H](NC(=O)Cc3ccccc3)C(=O)NCC)SC2(C)C)C(C)(C)S1 | - | MT-4 | cytopathic effect | EC50 | RF | 5.4 µM
COc1ccccc1/C=N/NC(=O)c1csc(N2N=C(c3ccccc3)CC2c2ccc(Cl)cc2)n1 | - | MT-4 | MTT / absorbance | EC50 | IIIB | >10.32 µM
Nc1nc(=O)n([C@H]2C[C@H](O)[C@@H](CO)O2)cc1-c1ccncc1 | - | H9 | RT activity | EC50 | IIIB | >10 µg/mL
COc1cc(/C=C/C(=O)/C=C/c2ccc(O)c(OC)c2)ccc1O | - | MT-4 | cytopathic effect / MTT | EC50 | - | >1.4 µM
Cc1cn([C@H]2C[C@H](N=[N+]=[N-])[C@@H](CO)O2)c(=O)[nH]c1=O | - | CEM + CEM-SS | cytopathic effect / XTT | EC50 | IIIB | 0.0061 µM
O=C(N/N=C/c1ccc([N+](=O)[O-])cc1)c1csc(N2N=C(c3ccccc3)CC2c2ccc(Cl)cc2)n1 | - | MT-4 | MTT / absorbance | EC50 | IIIB | >105.9 µM
O=C1CCCN1CCCN1CC(=O)N2CC(N(CCOc3ccccc3)S(=O)(=O)c3cccc(F)c3)C[C@H]2C1=O | - | TZM-bl | luciferase | EC50 | PLAI-JRFL PID2-6 | >30 µM

Rows are shuffled and stem from different studies. a–b is a range or a potency band. ECn is the concentration giving n% inhibition of infection, replication or growth.